Results as given in US12516292B2, “Methods of producing modified natural killer cells and methods of use” (The United States of America, as represented by the …, priority 2016, dated 2026).

Tested on: primary human NK cells
Assay: Lentiviral transduction of primary human NK cells, eGFP/GFP expression by FACS
Type: cell-based
Conditions: 500 U/ml IL-2 0 to 5 days before pLV[Exp]-PGK>EGFP at 20:1 MOI, RetroNectin plates, three days after transduction (FIG. 24)

Substance: IL-2: recombinant human IL-2 (Roche), cytokine used to prime NK cells
- GFP expression and viability: provides efficient transduction and maintains NK cell viability
